Measured values from several laboratories, pooled; numbers as filed in NIAID ChemDB.

Common to all: target-level tests; species: HIV-1; protein: Integrase

Rows are shuffled and stem from different studies. Two numbers with a dash give a range or band. Blank or dashed fields: not listed here. ICn: concentration for n% inhibition.

SMILES	read by	mutations	endpoint	strain or isolate	result
O=C1C(=O)N(Cc2ccccc2Cl)c2ccccc21	3′ processing	-	IC50	-	800 µM
COc1ccc(C(=O)C2=NS(=O)(=O)c3cc(C)c(Cl)cc3S2)cc1	3′ processing	INTG-C65S	IC50	-	>100 µM
Cc1cc(S(=O)(=O)/[NH+]=C2/N=C3C=C(c4ccsc4)SC3C(=O)N2Cc2ccco2)c(S)cc1Cl	3′ processing	-	IC50	-	8 µM
Cc1cc2c(cc1Cl)SC(C(=O)c1ccc(Cl)c(Cl)c1)=NS2(=O)=O	3′ processing	INTG-C65S	IC50	-	20 µM
CCN(CC)CCCC(C)Nc1ccnc2cc(Cl)ccc12	strand transfer	-	IC50	-	24.5 µM
COc1ccc(/C=C2\C(=O)N(c3ccc(S(=O)(=O)O)cc3)NC2C(F)(F)F)cc1OCc1ccc(F)cc1	3′ processing	-	IC50	-	>100 µM
O=C1c2c(O)c(=O)n(-c3ccc(N4CCOCC4)nc3)c(=O)n2CCN1Cc1ccc(F)cc1	strand transfer	-	IC50	-	<10 µM
O=C(/C=C/c1ncccc1Br)/C=C/c1ncccc1Br	-	-	IC50	-	2 µM
CC1(C)CC(=O)c2c(nc(-c3coc4cc(OCc5ccc(F)cc5)ccc4c3=O)n2O)C1	3′ processing / radiometric	-	IC20	-	250 µM
O=C(NCc1ccc(F)cc1)c1c(O)c2nc(Cc3ccc(F)cc3)sc2n(-c2ccccc2)c1=O	strand transfer	-	IC50	-	>4 µM
Cc1cc2c(cc1Cl)SC(C(=O)c1ccc(Br)cc1)=NS2(=O)=O	3′ processing	INTG-C65S	IC50	-	65 µM
O=C(/C=C/c1ncccc1-c1ccccc1)/C=C/c1ncccc1-c1ccccc1	-	-	IC50	-	5.2 µM
O=C(/C=C(\O)c1ccc(Cc2ccc(F)cc2)o1)c1cccs1	strand transfer	-	IC50	-	>100 µg/mL
N#Cc1c(-c2ccccc2)nc(SCc2ccc([N+](=O)[O-])cc2)[nH]c1=O	strand transfer	-	IC50	-	100 µM
Cc1cc(Cl)cc2c1S(=O)(=O)N=C(C(=O)c1ccc(Cl)cc1)S2	3′ processing	INTG-C65S	IC50	-	60 µM
O=C1C(=O)N(Cc2ccc([N+](=O)[O-])cc2)c2ccccc21	3′ processing	-	IC50	-	500 µM
CC(C)NC(=S)N(C)CCC1CN(Cc2ccc(F)cc2)C(=O)c2c(O)c(=O)n(C(C)C)c(=O)n21	strand transfer	-	IC50	-	<10 µM
O=C1c2c(O)c(=O)cc(COc3ccccc3)n2CCN1Cc1ccc(Cl)c(Cl)c1	ELISA	-	IC50	-	0.01–0.1 µM
CN1CCCCn2c(c3ncn(Cc4ccc(F)c(Cl)c4)c(=O)c3c(O)c2=O)C1=O	strand transfer	-	IC50	-	0.03 µM
Cc1cc(S(=O)(=O)NC2=NC3C=CSC3C(=O)N2)c(SCOc2ccccc2)cc1Cl	3′ processing	-	IC50	-	>100 µM
O=C(c1cn2ccn(Cc3cccc(Cl)c3)c(=O)c2c(O)c1=O)N1CCC(O)C1	ELISA	-	IC50	-	0.01–0.1 µM
CC(C)NC(=O)c1cc(F)ccc1CNC(=O)c1nc(N2CCCCS2(=O)=O)c2cccnc2c1O	strand transfer	-	IC50	-	<0.5 µM
NCCCC[C@H](NC(=O)CNC(=O)[C@H](Cc1cnc[nH]1)NC(=O)[C@H](CC(N)=O)NC(=O)[C@H](Cc1cnc[nH]1)NC(=O)[C@@H](N)Cc1ccccc1)C(=O)N[C@@H](CCC(N)=O)C(=O)O	strand transfer	-	IC50	-	50 µM
CNC(=O)c1ccccc1CNC(=O)c1nc(N2CCCCS2(=O)=O)c2cccnc2c1O	strand transfer	-	IC50	-	<0.5 µM
CN(C)C(=O)c1c2c(c(O)c(=O)n1C)C(=O)N(Cc1ccc(F)cc1)CC2	strand transfer	-	IC50	-	<1 µM
COc1cccc2c1c(/C(O)=C/C(=O)C(=O)O)cn2Cc1ccccc1F.COc1cccc2c1c(/C(O)=C/C(=O)C(=O)O)cn2Cc1ccccc1F.[Mg+2].[Mg+2]	3′ processing / AlphaScreen	-	IC50	IIIB	0.94 µM
CC(=O)OC1=C(C(=O)[C@@H]2C3C(C=C(C)[C@H]2C[C@H]2OC4(CC[C@H](C)[C@@H](c5cc(OC(C)=O)cc(OC(C)=O)c5)O4)[C@@H](C)C[C@@H]2C)CC[C@@H](OC(C)=O)[C@@H]3C)C(=O)NC1[n+]1ccccc1	strand transfer	-	IC50	-	30 µM
CC(C)(C)C(O)c1cn2ccn(Cc3cccc(Cl)c3)c(=O)c2c(O)c1=O	ELISA	-	IC50	-	0.01–0.1 µM
Cc1cc2c(cc1Cl)SC(C(=O)c1ccc(Cl)cc1)=NS2(=O)=O	strand transfer	INTG-C65S	IC50	-	33 µM
CCCNS(=O)(=O)c1cccc2cnccc12	strand transfer	-	IC50	-	900 µM
Nc1ccn([C@@H]2CC[C@H](COP(=O)(O)O)O2)c(=O)n1	strand transfer	-	IC50	-	45 µM
O=C(/C=C(\O)c1ccc(Cc2ccc(F)cc2)o1)c1ccco1	strand transfer	-	IC50	-	>100 µg/mL
O=C(NCCc1ccccc1)c1cc2cc3c(cc2[nH]1)OCO3	3′ processing	-	IC50	-	>100 µM
CC1(C)CC(=O)c2c(nc(-c3coc4cc(OCc5cccc(F)c5)ccc4c3=O)n2O)C1	3′ processing / radiometric	-	IC50	-	>1000 µM
O=C(NCc1ccc2c(c1)OCO2)c1cc2cc3c(cc2[nH]1)OCO3	3′ processing	-	IC50	-	>100 µM
Cc1cc(=O)n(-c2cccc([N+](=O)[O-])c2)n1C(=O)c1ccco1	strand transfer	-	IC50	-	>1000 µM
CON(C)CCC1CN(Cc2ccc(F)cc2)C(=O)c2c(O)c(=O)n(C(C)C)c(=O)n21	strand transfer	-	IC50	-	<10 µM
Cc1cc(Cl)cc2c1S(=O)(=O)N=C(C(=O)c1ccc(Cl)c(Cl)c1)S2	strand transfer	INTG-C65S	IC50	-	3 µM
CN(C)C(=O)c1c2c(c(O)c(=O)n1C)C(=O)N(Cc1ccc(F)c(Cl)c1)CC2	strand transfer	-	IC50	-	<1 µM
N#Cc1ccccc1-c1ccc(CSc2nc3ccccc3s2)cc1	3′ processing	-	IC50	-	>1000 µM
CCN(CC)CCCC(C)Nc1cncc2cc(F)ccc12	3′ processing	-	IC50	-	>300 µM
CN(C)CCCNC(=O)c1ccc2nc(-c3ccc4nc(-c5ccc(OCCOCCOCCOc6ccc(-c7nc8ccc(-c9nc%10ccc(C(=O)NCCCN(C)C)cc%10[nH]9)cc8[nH]7)cc6)cc5)[nH]c4c3)[nH]c2c1	3′ processing	-	Ki	-	4.7 µM
CC(C)NC(=O)c1[nH]c(=O)c(O)c2c1CCN(Cc1ccc(F)cc1)C2=O	strand transfer	-	IC50	-	<1 µM
O=C(c1cc2cc3c(cc2[nH]1)OCO3)N1CCN(C(=O)c2cc3cc4c(cc3[nH]2)OCO4)CC1	3′ processing	-	IC50	-	>100 µM
COc1ccc(-c2nc(SCCc3ccccc3)[nH]c(=O)c2C#N)cc1	strand transfer	-	IC50	-	100 µM
COc1cccc2c1c(/C(O)=C/C(=O)C(=O)O)cn2Cc1cc(F)ccc1F.COc1cccc2c1c(/C(O)=C/C(=O)C(=O)O)cn2Cc1cc(F)ccc1F.[Mg+2].[Mg+2]	strand transfer / AlphaScreen	-	IC50	IIIB	0.05 µM
COc1ccc(-c2nc(SCc3ccccc3)[nH]c(=O)c2C#N)cc1	strand transfer	-	IC50	-	100 µM
O=C(/C=C/c1ccc(O)c2c1[C@H](C(=O)O)[C@@H](c1ccc(O)c(O)c1)O2)O[C@H](Cc1ccc(O)c(O)c1)C(=O)O	strand transfer	-	IC50	-	0.48 µM
O=C(/C=C/c1ccccn1)/C=C/c1ccccn1	-	-	IC50	-	1.6 µM
O=C1C(=O)N(Cc2cccc3cccnc23)c2ccccc21	strand transfer	-	IC50	-	700 µM
CN(C)C(=O)Nc1cn2ccn(Cc3cccc(Cl)c3)c(=O)c2c(O)c1=O	ELISA	-	IC50	-	<0.01 µM
O=C(C1=NS(=O)(=O)c2ccc(Cl)cc2S1)c1ccc(Cl)c(Cl)c1	3′ processing	-	IC50	-	19 µM
O=C1c2c(O)c(=O)n([C@@H]3CCCC[C@H]3O)c(=O)n2CCN1Cc1ccc(F)cc1	strand transfer	-	IC50	-	<10 µM
NC(=O)c1cc(F)ccc1CNC(=O)c1nc(N2CCCCS2(=O)=O)c2cccnc2c1O	strand transfer	-	IC50	-	<0.5 µM
COc1ccc(/C=C2\C(=O)N(c3ccccc3)NC2C(F)(F)F)cc1OCc1ccc(F)cc1	3′ processing	-	IC50	-	>100 µM
O=[N+]([O-])c1ccc(CSc2nc3ccccc3s2)cc1	3′ processing	-	IC50	-	>1000 µM
O=C(NCCCN1CCN(CCCNC(=O)c2cc3cc(O)c(O)cc3[nH]2)CC1)c1cc2cc(O)c(O)cc2[nH]1	3′ processing	-	IC50	-	5 µM
O=C(O)/C(O)=C/c1cnc(OCc2ccccc2)cn1	strand transfer	-	IC50	-	0.61 µg/mL
COc1ccc(/C=C2\C(=O)N(c3cccc(Br)c3)N=C2C)cc1OCc1ccc(F)cc1	strand transfer	-	IC50	-	3 µM
CC(C)C(=O)C[C@@H](O)[C@@H](C)[C@H]1CC[C@@]2(C)C3=CC(=O)[C@]45O[C@H]4[C@H](O)[C@@H](O)C[C@]5(C)C3=C[C@@H](O)[C@]12C	-	-	IC50	-	26 µg/mL
CCN(CC)CCCC(C)Nc1ccnc2cc(C(F)(F)F)ccc12	strand transfer	-	IC50	-	>300 µM
O=c1c(-c2ccccn2)cn2ccn(Cc3ccc(F)c(F)c3)c(=O)c2c1O	ELISA	-	IC50	-	<0.01 µM
Cc1ccc(-c2nc(SCCc3ccccc3)[nH]c(=O)c2C#N)cc1	strand transfer	-	IC50	-	35 µM
N#Cc1ccccc1-c1ccc(CS(=O)(=O)c2nc3ccccc3s2)cc1	strand transfer	-	IC50	-	700 µM
O=C(NC1CC1)c1[nH]c(=O)c(O)c2c1CCN(Cc1ccc(F)cc1)C2=O	strand transfer	-	IC50	-	<1 µM
O=C(/C=C/c1cc(Br)ccn1)/C=C/c1cc(Br)ccn1	-	-	IC50	-	5 µM
C=C(CC[C@@H](C)[C@H]1CC[C@@]2(C)C3C[C@H](OS(=O)(=O)[O-])[C@H]4C[C@H](OS(=O)(=O)[O-])[C@@H](OS(=O)(=O)[O-])C[C@]4(C)C3=CC[C@]12C)C(C)C.[Na+].[Na+].[Na+]	-	-	IC50	-	2.3 µg/mL
CCN(CC)CCCC(C)Nc1cncc2cc(Cl)ccc12	3′ processing	-	IC50	-	>300 µM
Cc1c(NC(=O)c2ccco2)c(=O)n(-c2ccccc2)n1C	3′ processing	-	IC50	-	>1000 µM
O=C(NCc1ccccc1)c1cc2cc(O)c(O)cc2[nH]1	3′ processing	-	IC50	-	25 µM
O=C(c1cn2ccn(Cc3cccc(Cl)c3)c(=O)c2c(O)c1=O)N1CCOCC1	ELISA	-	IC50	-	0.01–0.1 µM
COc1cccc2c1c(/C(O)=C\C(=O)C(=O)O)cn2Cc1ccc(F)cc1	strand transfer / AlphaScreen	-	IC50	IIIB	0.04 µM
O=c1ccn2ccn(Cc3ccc(Cl)cc3O)c(=O)c2c1O	ELISA	-	IC50	-	0.01–0.1 µM
CN(c1nc(C(=O)NCc2ccc(F)cc2C(N)=O)c(O)c2ncccc12)S(C)(=O)=O	strand transfer	-	IC50	-	<0.5 µM
O=C1c2c(O)c(=O)c(-c3nccs3)cn2CCN1CCCc1ccc(Cl)c(F)c1	ELISA	-	IC50	-	0.01–0.1 µM
CCOC(=O)c1c(C)nc(-c2coc3cc(OCc4ccccc4F)ccc3c2=O)n1O	3′ processing / radiometric	-	IC20	-	100 µM

6 of the rows above, restated:

| SMILES | read by | mutations | endpoint | strain or isolate | result |
|---|---|---|---|---|---|
| COc1ccc(/C=C2\C(=O)N(c3ccccc3)NC2C(F)(F)F)cc1OCc1ccc(F)cc1 | 3′ processing | - | IC50 | - | >100 µM |
| COc1ccc(-c2nc(SCc3ccccc3)[nH]c(=O)c2C#N)cc1 | strand transfer | - | IC50 | - | 100 µM |
| O=C1c2c(O)c(=O)c(-c3nccs3)cn2CCN1CCCc1ccc(Cl)c(F)c1 | ELISA | - | IC50 | - | 0.01–0.1 µM |
| N#Cc1c(-c2ccccc2)nc(SCc2ccc([N+](=O)[O-])cc2)[nH]c1=O | strand transfer | - | IC50 | - | 100 µM |
| O=C(c1cc2cc3c(cc2[nH]1)OCO3)N1CCN(C(=O)c2cc3cc4c(cc3[nH]2)OCO4)CC1 | 3′ processing | - | IC50 | - | >100 µM |
| O=C(c1cn2ccn(Cc3cccc(Cl)c3)c(=O)c2c(O)c1=O)N1CCOCC1 | ELISA | - | IC50 | - | 0.01–0.1 µM |